A mixed list of measured activities; the numbers were collected in NIAID ChemDB.

All rows: whole-cell or culture tests; agent: Rhinovirus

a–b is a range or a potency band.

smiles,strain,cells,read by,endpoint,dose,value
NC(=O)c1ncn([C@@H]2O[C@H](CO)[C@@H](O)[C@H]2O)n1,TYPE 9,HeLa,cytopathic effect,EC50,,>8 µg/mL
CN1CCC2(CC3CCC2(C)C3(C)C)C1,,HeLa,,inhibition,100 µM,>70%
CC(C)S(=O)(=O)n1c(N)nc2ccc(/C(=N/O)c3ccccc3)cc21,TYPE 2,HeLa,cytopathic effect,EC50,,0.06–0.12 µg/mL
OC1c2ccccc2C=Cc2ccccc21,TYPE 14,HELA-H1,cytopathic effect,EC50,,15 µM
Cc1cccc(N2CCN(c3ccc(Br)nn3)CC2)c1,TYPE 2,HeLa,cytopathic effect,EC50,,0.0078 µg/mL
C1CC2(CN1)C1CC3CC(C1)CC2C3,,HeLa,,inhibition,100 µM,>70%
C#CC[C@@H](C(=O)N[C@H](/C=C/C(=O)OCC)C[C@@H]1CCNC1=O)n1cccc(NC(=O)c2cc(C)on2)c1=O,Serotype 1A,H1-HELA,cytopathic effect / XTT,inhibition,0.078 µM,90%
c1ccc2c(c1)CCc1ccccc1C2,TYPE 16,HELA-H1,cytopathic effect,EC50,,>200 µM
CCN1CCC2(C1)C1CC3CC(C1)CC2C3,,HeLa,,inhibition,100 µM,>70%
CC(C)S(=O)(=O)n1c(N)nc2ccc(/C(=N/O)c3ccccc3)cc21,Serotype 48,HeLa,plaque count,EC50,,0.03 µg/mL
OC1c2ccccc2CCc2ccccc21,TYPE 14,HELA-H1,cytopathic effect,EC50,,50 µM
NC(=O)c1c[se]c([C@@H]2O[C@H](CO)[C@@H](O)[C@H]2O)n1,TYPE 9,HeLa,cytopathic effect,EC50,,>4 µg/mL
O=C(O)Cc1csc(/N=C2\SCC3Cc4ccccc4CN23)n1,TYPE 3,,,MIC,,3 µg/mL
CCOc1cc(O)c(C(=O)NCc2ccc(NC)cc2)c(OC)c1,TYPE 2,HeLa,cytopathic effect,EC50,,0.006 µg/mL
N=C(N)CCNC(=O)C1CCC(N)=N1,TYPE 2,,,MIC,,6 µg/mL
CCO/N=C/c1ccc(OCCC2CCN(c3ccc(C)nn3)CC2)cc1,1059 (ICAM-1 receptor group 14),KB,neutral red,EC50,,0.068 µM
S=C(S)N1CCCC1,TYPE 14,HeLa,,inhibition,31 µM,15%

For reference, 2 entries again:

smiles | strain | cells | read by | endpoint | dose | value
CC(C)S(=O)(=O)n1c(N)nc2ccc(/C(=N/O)c3ccccc3)cc21 | TYPE 2 | HeLa | cytopathic effect | EC50 |  | 0.06–0.12 µg/mL
O=C(O)Cc1csc(/N=C2\SCC3Cc4ccccc4CN23)n1 | TYPE 3 |  |  | MIC |  | 3 µg/mL

Lines come from different laboratories, so protocols vary. Blank or dashed fields: not listed here. Inhibition is in % at the dose shown (toxicity tests: loss of growth or viability). ECn: concentration that inhibits the pathogen or its effect by n%.